Human monoclonal antibodies against the spike receptor-binding domain (heavy:light variable regions). IC50 against pseudoviruses bearing the spike of naturally observed variants; lower = stronger; >10 µg/ml means not reached at the top dose. No active / inactive call. The stated detection limit is 0.0005 µg/ml; values near or below 0.001 µg/ml lie at the floor of the assay.
B1: BD55-6707 (protein)
chain 1: EVQLVESGGGLVQPGGSLRLSCAASGFSFSSYDMLWVRQVPGKGLEWISSVGTSGDTYYRDSVRGRFTISREDAKNSLFLHMNNLRSGDTAVYYCVRGDASGYYYFFDHWGQGALVTVSS
chain 2: DIQMTQSPSSLSASVGDRVTITCRAAQTIGSYLNWYQQRPGKAPRLLIYAASTLQSGVSSRFSGSGAGTEFTLTISSLQPEDFATYYCQQSYSTSTWTFGLGTKVE
B2: BD55-6711 (protein)
chain 1: QLQLRESGPGLVKPSETLSLTCTVSGGSISSTTYYWGWVRQPPGKGLEWIGSIHYSGSTYYNPSLESRVTISVDTSKSQFSLKLSSVTAADTSVYYCRGTSGWSSYYSYMDVWGNGTTVTVSS
chain 2: DIVMTQSPDSLAVSLGERATINCKSSQSLLYSSNNKNYLAWYQQKPGQPPKLLIYWASTRESGVPDRFSGSGSGTDFTLTINSLQAEDVAVYYCQQYYSTRRMYTFGQGTKLEIK
B3: BD55-6714 (protein)
chain 1: QEQLVQSGSELKKPGASVKLSCKAAGYTFTKYTLNWVRQVPGQGLEWMGWINTNTGTPTYAQVFTGRFVFSLDTSVRTAYLQISGLKTEDTAVYYCARREHYDFVWGAPYYFDLWGQGTLVTVSS
chain 2: SYELTQPPSVSVSPGQTARITCSGDTLPKQYAYWYQQKPGQAPVLMIYKDSERPSGIPERFSGSSSGTAVTLTITGVQAEDEADYYCQSLDTRTTYRVLFGGGTKLTVL
B4: BD55-6698 (protein)
chain 1: EVQLVQSGAEVRKPGESLKISCQTSGYSFSNYGIAWVRQMPGNGLEWMGIIYPDESGTRYSPSFQGQVSISADESISTAYLQWSSLKASDTAVYYCARHGGMLRHIDWQNNGMDVWGQGTRVTVSS
chain 2: DIHMTQSPSSLSASVGDRITITCRASQGIGTYLHWYQQKPQKAPKLLIYGASTLQSGIPSRFSGGGSGTEFTLTISSLQPEDFATYYCQQSYSTPTWTFGQGTKVEVK
B5: BD55-6691 (protein)
chain 1: QVQLVQSGAEVKKPGASVKVSCKASGYTFTNYGITWVRQAPGQGLEWMGWISIYTHNTNNAQKLQGRVTMTTDTSTRTAYMELRSLRSDDTAVYYCARVYSHEDCSGGSCHFLGYYYGMDVWGQGTTVTVSS
chain 2: QSVLTQPPSASGTPGQRVTVSCSGSSSNIGSKDGDWYQQLPGTAPKLLIYRNDQRPSGVPDRFSGSKSGTSASLVINGLRSEDEAEYYCAAWDDSLSGYVFGTGTKVTVL
B6: BD55-6678 (protein)
chain 1: EVQLLESGGGLVQPGGSLRLSCAASGFSFNTYDMNWVRQAPGKGLEWVSVISGSGATTEYSDSVKGRFTISRDNSKNTLYLQMNSLRAEDTAVYYCAKNRRPEYDSDSMTGLDPWGQGTLVTVSS
chain 2: EIVMTQSPATLSVSPGERATLSCRASQSVSRNLAWYQQKPGQTPRLLIYGASTRATGIPASFSASGSGTEFTLTIASLRSEDFAIYYCQQYNNWPLTFGGGTKVEIK
B7: BD55-1312 (protein)
chain 1: QAQLVQSGTEVKKPGASVRVSCKASGYTFTGYYIHWVRQAPGQGLEWMGWINSLSGDTNYAQKFQGRVTMTRDTSISTAYMDLSRLRSDDTAVYYCARGPYYDYVYVWGSDRYAPHYFDYWGQGTLVTVSS
chain 2: DIQLTQSPSFLSASVGDRVTISCRAGQGISSYLAWYQQKPGKAPKLLIYAASTLQYGVPSRFSGSGSGTEFTLTISSLQPEDFATYYCQQLNTYPLTFGGGTKVEIK
B8: BD55-6705 (protein)
chain 1: EVQLVQSGAEVKKSGESLKISCKGSADSFTIHWIGWVRQVPGKGLEWMGVIHPSDSDTRYSPSFQGQVTISADKSTSTAYLHWSSLKASDTATYYCASREWGYYYYGMDVWGQGTTVTVSS
chain 2: DIQMTQSPSSVSASVGDRVTITCRASQGISNRLAWYQKKPGKAPKLLIYTASSVQSGVPSRFSGSGFGTDFTLTISSLQPEDFATYYCQQANTFPPTFGQGTRLEIK
B9: BD55-1315 (protein)
chain 1: EVQLVESGGGLIQPGGSLRLSCAASGLIVDRNYMTWVRQAPGKGLEWVAVIYSGGSTFYADSVKGRFIISRDSSNNTLYLQMNSLRAADTAVYYCARDAINYGMDVWGQGTMVTVSS
chain 2: DIQLTQSPSSLSASVGDRVTITCRASQSVSGYLNWYQQKPGKAPKLLISGGSSLQSGVPSRFSGTTSGTDFTLTISNLQPEDFATYYCQQSYSHTTFGPGTKVDV
B10: BD-566 (protein)
chain 1: QVQLVESGGGVVQPGRSLRLSCAASGFTFRSYGMHWVRQAPGKGLEWVAVISKDGSNKYYADSVKGRFTISRDNSKNTLYLQWNSLRAEDTAVYYCARALVVPGAPRYYYYGMDVWGQGTTVTVSS
chain 2: AIQLTQSPSSLSASVGDRVTITCRASQGISSALAWYQQRPGKAPKLLIYDASTLESGVPSRFSGSGSGTDFTLTISSLQPEDFATYYCQQFNTYPWTFGQGTKVELK
B11: BD55-6692 (protein)
chain 1: EVQLVQSGAEVKKPGESLKISCKGSGYSFTSYWIGWVRQMPGKGLEWVGIIFPGDSDTSYSPSFQGQVTISADRSVSTAYLQWTSLKASDTAMYYCVKHGTPTHYGAYAGYYFDYWGQGTLVTVSS
chain 2: QSALTQPRSVSGSPGQSVTISCTGTTSDVGGYNYISWYQQHPGKAPKLIIYDVTKRPSGVPDRFSGSKSANTASLTISGLQAEDEADYYCCSYAGKYTRVFGGGTKLTVL
B12: BD55-6670 (protein)
chain 1: QVLLVQSGAEVKKPGASVKVSCKASGYTFSSSDINWVRQAAGQGLEWIGWMNPKSGNTGYARKFHGRVTMTRNTSINTAYMELSSLKSEDTAVYYCARERDAYNPGTFDFWGQGTMVTVSS
chain 2: DIQMTQSPSSLSASVGDRVTVTCRASQNIRNYLSWYQQRPGKAPNILIFEASTLQSGVPSRFSGGGSGTDFTLTINSLQPEDFATYYCQQSYSTPPTFGQGTRVEIK

What was measured:
Assay in all cases: pseudovirus neutralization IC50; higher = weaker neutralization
[1] = biological target: SARS-CoV-2 Omicron BA.1 spike pseudovirus
Experimental: (§1)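 Single-round VSV luciferase pseudovirus mixed with antibody dilutions for 1 h and put on Huh-7 cells for about a day; IC50 from the dose curve.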

[2] = biological target: SARS-CoV-2 Omicron BA.2 spike pseudovirus
Experimental: as §1

[3] = biological target: SARS-CoV-2 Omicron BA.2.75 spike pseudovirus
Experimental: as §1

[4] = biological target: SARS-CoV-2 Omicron BA.5 spike pseudovirus
Experimental: as §1

[5] = biological target: SARS-CoV-2 Omicron BQ.1.1 spike pseudovirus
Experimental: as §1

[6] = biological target: SARS-CoV-2 Omicron XBB spike pseudovirus
Experimental: as §1

[7] = biological target: SARS-CoV-2 early D614G spike pseudovirus
Experimental: as §1

Row | Binder | pseudovirus neutralization IC50 [1] | pseudovirus neutralization IC50 [2] | pseudovirus neutralization IC50 [3] | pseudovirus neutralization IC50 [4] | pseudovirus neutralization IC50 [5] | pseudovirus neutralization IC50 [6] | pseudovirus neutralization IC50 [7]
1 | B1 | > 10 µg/mL | > 10 µg/mL | > 10 µg/mL | > 10 µg/mL | > 10 µg/mL | > 10 µg/mL | > 10 µg/mL
2 | B2 | > 10 µg/mL | > 10 µg/mL | > 10 µg/mL | > 10 µg/mL | > 10 µg/mL | > 10 µg/mL | > 10 µg/mL
3 | B3 | > 10 µg/mL | > 10 µg/mL | > 10 µg/mL | > 10 µg/mL | > 10 µg/mL | > 10 µg/mL | 1.96 µg/mL
4 | B4 | > 10 µg/mL | > 10 µg/mL | > 10 µg/mL | > 10 µg/mL | > 10 µg/mL | > 10 µg/mL | > 10 µg/mL
5 | B5 | > 10 µg/mL | > 10 µg/mL | > 10 µg/mL | > 10 µg/mL | > 10 µg/mL | > 10 µg/mL | > 10 µg/mL
6 | B6 | 0.342 µg/mL | > 10 µg/mL | > 10 µg/mL | > 10 µg/mL | > 10 µg/mL | > 10 µg/mL | 0.239 µg/mL
7 | B7 | > 10 µg/mL | > 10 µg/mL | > 10 µg/mL | > 10 µg/mL | > 10 µg/mL | > 10 µg/mL | 0.0449 µg/mL
8 | B8 | > 10 µg/mL | > 10 µg/mL | > 10 µg/mL | > 10 µg/mL | > 10 µg/mL | > 10 µg/mL | > 10 µg/mL
9 | B9 | > 10 µg/mL | > 10 µg/mL | > 10 µg/mL | 5.07 µg/mL | > 10 µg/mL | > 10 µg/mL | 0.00463 µg/mL
10 | B10 | 1.7 µg/mL | 2.64 µg/mL | 0.932 µg/mL | 7.39 µg/mL | > 10 µg/mL | > 10 µg/mL | 0.0041 µg/mL
11 | B11 | > 10 µg/mL | > 10 µg/mL | > 10 µg/mL | > 10 µg/mL | > 10 µg/mL | > 10 µg/mL | > 10 µg/mL
12 | B12 | > 10 µg/mL | > 10 µg/mL | > 10 µg/mL | > 10 µg/mL | > 10 µg/mL | > 10 µg/mL | > 10 µg/mL

From the supplement of paper PMC9931576
